Genome-wide point mutation profile of HIV-1: Gag

The measurements come from Al-Mawsawi et al. 2014 (doi:10.1186/s12977-014-0124-6).

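Random point mutant libraries of HIV-1 NL4-3, one for each of seven fragments, were passaged in CEM T lymphocytes. The RC index is the frequency of a change after passage round 2 divided by its frequency in the plasmid library.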

Protein: Gag of HIV-1 NL4-3, numbered from its first residue. Gag is numbered as the whole polyprotein.
Effects on overlapping genes or RNA elements are not listed.

RC index: lower means poorer replication; rough cut-offs are 0.1 (lethal) and 0.2 (tolerated).
Substitutions are written as wild-type residue, site number, new residue.
Input reads are the counts in the plasmid library.
Since each clone held several changes (about five per kb), neutral changes can read low.
Base changes are numbered along pNL4-3.
An index over 1, which the authors read as above wild type, was rare (1.9% of all changes in the genome).

* P279S (base C1624T, region CA, input reads 375) -> 0.181
* D295N (base G1672A, region CA, input reads 115) -> 0.512
* M200I (base G1389T, region CA, input reads 157) -> 0.100
* Q28K (base C871A, region MA, input reads 50) -> 0.324
* T242S (base A1513T, region CA, input reads 228) -> 0.0848
* I147L (base A1228T, region CA, input reads 377) -> 0.489
* P292S (base C1663T, region CA, input reads 197) -> 0.184
* Q116H (base G1137T, region MA, input reads 204) -> 0.0646
* G352V (base G1844T, region CA, input reads 143) -> 0.114
* D213N (base G1426A, region CA, input reads 367) -> 0.310
* M198I (base G1383C, region CA, input reads 140) -> 0.0507
* P255L (base C1553T, region CA, input reads 453) -> 0.0775
* V370L (base G1897T, region p2, input reads 393) -> 0.0142
* M377I (base G1920A, region p2, input reads 203) -> 0.542
* N131I (base A1181T, region MA, input reads 80) -> 0.0549
* R429G (base A2074G, region NC p7, input reads 272) -> 0.117
* K32E (base A883G, region MA, input reads 157) -> 0.0774
* N382K (base T1935A, region NC p7, input reads 109) -> 0.159
* D298G (base A1682G, region CA, input reads 233) -> 0.0680
* T242I (base C1514T, region CA, input reads 816) -> 0.0553
* Q145L (base A1223T, region CA, input reads 220) -> 0.0399
* E74G (base A1010G, region MA, input reads 129) -> 0.0498
* N80Y (base A1027T, region MA, input reads 66) -> 0.146
* Y86F (base A1046T, region MA, input reads 362) -> 0.0444
* T151I (base C1241T, region CA, input reads 99) -> 0.288
* H89N (base C1054A, region MA, input reads 96) -> 0.234
* E291G (base A1661G, region CA, input reads 494) -> 0.0495
* N153Y (base A1246T, region CA, input reads 273) -> 0.0322
* P149R (base C1235G, region CA, input reads 81) -> 0.0271
* Q90H (base A1059T, region MA, input reads 407) -> 0.0474
* T186I (base C1346T, region CA, input reads 566) -> 0.0690
* K359T (base A1865C, region CA, input reads 240) -> 0.0116
* A197D (base C1379A, region CA, input reads 82) -> 0.0866
* N432S (base A2084G, region NC p7, input reads 499) -> 0.0297
* D235N (base G1492A, region CA, input reads 287) -> 0.180
* Q145H (base G1224C, region CA, input reads 74) -> 0.0297
* Q139E (base C1204G, region CA, input reads 146) -> 0.0752